{"source": "PubChem BioAssay AID624099 | ICCB-Longwood | 2012", "aim": "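Knock-downs relieving repression by E2 of an HPV18 LCR luciferase reporter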 (primary screen)", "cells": "human C33A cervical carcinoma cells (HPV-negative) stably expressing BPV1 E2 and an HPV18 LCR luciferase reporter", "reagents": "siRNA pool against human genes, 40 nM", "time to read-out": "72 h", "detection": "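HPV18 LCR reporter light per well, converted to plate-wise z-scores that exclude control wells, and averaged over triplicate plates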", "direction": "mean z-score and z-score: higher = stronger reporter signal, weaker E2 silencing", "active means": "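Hit if mean z-score reaches 2 and two or more of three replicate z-scores also reach 2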", "note": "Shown is one part, drawn at random, of about 21,000 reagents. 497 of all reagents (2.4%) count as active. 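Higher z means weaker E2 silencing; only reporter increases were scored, and knock-downs that hurt cell survival may mask genuine repressor factors.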 Unmarked entries are inactive."}
{"Target gene": "RPS26", "mean z-score": -1.46, "z-score, replicate A": -1.65, "z-score, replicate B": -1.5, "z-score, replicate C": -1.22}
{"Target gene": "FLJ40712 (retired record)", "mean z-score": 0.21, "z-score, replicate A": -0.05, "z-score, replicate B": 0.2, "z-score, replicate C": 0.47}
{"Target gene": "AVPR1A", "mean z-score": -0.32, "z-score, replicate A": 0.21, "z-score, replicate B": -0.22, "z-score, replicate C": -0.96}
{"Target gene": "THTPA", "mean z-score": 0.99, "z-score, replicate A": 1.08, "z-score, replicate B": 1.27, "z-score, replicate C": 0.63}
{"Target gene": "PPME1", "mean z-score": 2.03, "z-score, replicate A": 1.83, "z-score, replicate B": 1.83, "z-score, replicate C": 2.42}
{"Target gene": "P4HA1", "mean z-score": 0.58, "z-score, replicate A": 0.52, "z-score, replicate B": 0.6, "z-score, replicate C": 0.64}
{"Target gene": "H2BC3", "mean z-score": -0.93, "z-score, replicate A": -0.8, "z-score, replicate B": -1.09, "z-score, replicate C": -0.91}
{"Target gene": "INPP4B", "mean z-score": 1.84, "z-score, replicate A": 1.64, "z-score, replicate B": 2.02, "z-score, replicate C": 1.86}
{"Target gene": "NOMO2", "mean z-score": 0.05, "z-score, replicate A": -0.13, "z-score, replicate B": -0.19, "z-score, replicate C": 0.46}
{"Target gene": "MRPS23", "mean z-score": 0.28, "z-score, replicate A": 0.37, "z-score, replicate B": 0.22, "z-score, replicate C": 0.24}
{"Target gene": "AUH", "mean z-score": -0.28, "z-score, replicate A": -0.06, "z-score, replicate B": -0.47, "z-score, replicate C": -0.31}
{"Target gene": "LINC00474", "mean z-score": 0.05, "z-score, replicate A": 0.34, "z-score, replicate B": 0.27, "z-score, replicate C": -0.46}
